Measurements reported in PubChem BioAssay AID624099 (ICCB-Longwood, 2012).

Assay: 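Human genes that papillomavirus E2 requires to repress the HPV18 LCR promoter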 (primary screen)
System: human C33A cervical carcinoma cells (HPV-negative) stably expressing BPV1 E2 and an HPV18 LCR luciferase reporter
Knock-down reagent: siRNA pool against human genes, 40 nM
Time to read-out: 72 h
Detection: 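Per-well luciferase luminescence, z-scored on each plate against the plate mean and SD with control wells left out, then averaged across three replicate plates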
Reading the numbers: mean z-score and z-score: higher = stronger reporter signal, weaker E2 silencing
Call rule: 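Hit if mean z-score reaches 2 and two or more of three replicate z-scores also reach 2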
The whole screen tested about 21,000 reagents; below is a part drawn at random. In the full data, 497 (2.4%) are marked active. 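Higher z means weaker E2 silencing; only reporter increases were scored, and knock-downs that hurt cell survival may mask genuine repressor factors.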 Entries without a mark were called inactive. Reagent sequences are not shown.

With knock-down of CDX4 (caudal type homeobox 4) the results were mean z-score -0.51; z-score, replicate A = -0.93; z-score, replicate B = -0.24; z-score, replicate C = -0.36.
After knock-down of ZNF879 (zinc finger protein 879), the record shows mean z-score -0.59; z-score, replicate A = -0.55; z-score, replicate B = -0.46; z-score, replicate C = -0.77.
After knock-down of MACC1 (MET transcriptional regulator MACC1) the results were mean z-score 0.5; z-score, replicate A = 0.79; z-score, replicate B = 0.14; z-score, replicate C = 0.56.
For HCAR1 (hydroxycarboxylic acid receptor 1), the values are mean z-score -0.19; z-score, replicate A = -0.26; z-score, replicate B = -0.36; z-score, replicate C = 0.04.
Silencing of APOM (apolipoprotein M) resulted in: mean z-score 1.87; z-score, replicate A = 1.73; z-score, replicate B = 1.69; z-score, replicate C = 2.2.
After knock-down of ZNF441 (zinc finger protein 441) the results were mean z-score 2.18 (active); z-score, replicate A = 2.64; z-score, replicate B = 2.09; z-score, replicate C = 1.8.
Silencing of KAT14 (lysine acetyltransferase 14) came out at: mean z-score 1.29; z-score, replicate A = 1.36; z-score, replicate B = 1.53; z-score, replicate C = 0.99.
LONRF1 (LON peptidase N-terminal domain and ring finger 1) gave mean z-score 0.8; z-score, replicate A = 1.03; z-score, replicate B = 0.3; z-score, replicate C = 1.06.
For LY6H (lymphocyte antigen 6 family member H) the deposit lists mean z-score -0.02; z-score, replicate A = 0.07; z-score, replicate B = 0; z-score, replicate C = -0.12.
CSF1 (colony stimulating factor 1) gave mean z-score 0.34; z-score, replicate A = 0.49; z-score, replicate B = 0.45; z-score, replicate C = 0.08.
Knock-down of MELK (maternal embryonic leucine zipper kinase) came out at: mean z-score 1.52; z-score, replicate A = 1.58; z-score, replicate B = 1.58; z-score, replicate C = 1.4.
SRP72 (signal recognition particle 72) gave mean z-score 0.59; z-score, replicate A = 0.66; z-score, replicate B = 0.68; z-score, replicate C = 0.44.
After knock-down of LOC387887 (retired record) the results were mean z-score 0.61; z-score, replicate A = 0.41; z-score, replicate B = 0.74; z-score, replicate C = 0.68.
Depletion of LASP1 (LIM and SH3 protein 1) gave: mean z-score -1.08; z-score, replicate A = -0.88; z-score, replicate B = -1.15; z-score, replicate C = -1.22.
IL1RAP (interleukin 1 receptor accessory protein) scored mean z-score 0.1; z-score, replicate A = 0.14; z-score, replicate B = -0.15; z-score, replicate C = 0.31.
LIN28B (lin-28 RNA binding posttranscriptional regulator B) showed mean z-score 1.14; z-score, replicate A = 1.31; z-score, replicate B = 1.21; z-score, replicate C = 0.9.
After knock-down of C16orf54 (chromosome 16 open reading frame 54) the results were mean z-score -1.88; z-score, replicate A = -1.63; z-score, replicate B = -1.79; z-score, replicate C = -2.22.
After knock-down of CDX2 (caudal type homeobox 2), the screen gave mean z-score -0.42; z-score, replicate A = -0.59; z-score, replicate B = -0.33; z-score, replicate C = -0.36.
For SPDL1 (spindle apparatus coiled-coil protein 1), the entry reads mean z-score -0.53; z-score, replicate A = -0.59; z-score, replicate B = -0.69; z-score, replicate C = -0.3.
CYP2A6 (cytochrome P450 family 2 subfamily A member 6) scored mean z-score 0.44; z-score, replicate A = 0.29; z-score, replicate B = 0.22; z-score, replicate C = 0.81.
ITGB4 (integrin subunit beta 4) scored mean z-score -0.73; z-score, replicate A = -0.87; z-score, replicate B = -0.69; z-score, replicate C = -0.63.
Depletion of SCGB1D1 (secretoglobin family 1D member 1) came out at: mean z-score -0.21; z-score, replicate A = -0.26; z-score, replicate B = 0.16; z-score, replicate C = -0.54.
Depletion of CYB5D2 (cytochrome b5 domain containing 2) gave: mean z-score 0.65; z-score, replicate A = 1.13; z-score, replicate B = 0.48; z-score, replicate C = 0.33.
After knock-down of SFRP5 (secreted frizzled related protein 5) the results were mean z-score -1.57; z-score, replicate A = -1.4; z-score, replicate B = -1.7; z-score, replicate C = -1.61.
SCN8A (sodium voltage-gated channel alpha subunit 8) scored mean z-score -0.61; z-score, replicate A = -0.44; z-score, replicate B = -0.48; z-score, replicate C = -0.92.
With knock-down of PTGER1 (prostaglandin E receptor 1), the record shows mean z-score -0.71; z-score, replicate A = -0.4; z-score, replicate B = -0.84; z-score, replicate C = -0.88.
GRB7 (growth factor receptor bound protein 7) scored mean z-score -0.31; z-score, replicate A = -0.15; z-score, replicate B = -0.43; z-score, replicate C = -0.36.

Entries above with an active call (1):
ZNF441 (zinc finger protein 441) | mean z-score: 2.18 (active); z-score, replicate A: 2.64; z-score, replicate B: 2.09; z-score, replicate C: 1.8
